Assay results reported in publication PMC11784200, “Insights into antibiotic resistance promoted by quinolone exposure” (Antimicrobial Agents and Chemotherapy, 2024).

Tested on: E. coli MLS83L
Assay: QIAR assay, quinolone-resistant strain
Conditions: MLS83L at sub-MIC levels of CIP for this strain

In the case of O=C(O)c1cn(C2CC2)c2cc(N3CCNCC3)c(F)cc2c1=O [CIP, ciprofloxacin], the “KAN resistance frequency, times lower than the wild type” value is reported as “approximately 100 times”.
